Data published in article PMC6406179 (F1000Research, 2018).

Target: Mannheimia haemolytica leukotoxin (Lkt) (Mannheimia haemolytica, UniProt P16535)
Assay: MTT dye-reduction cytotoxicity-blocking assay, BL3 cells
Conditions: read-out: IC50 (uM) aa 5-17, Figure 6A, 13-mer peptides of cattle, sheep, water buffalo, eland, 50 μM to 0.195 μM, non-linear regression, n=3 or 4

Compound `CC(C)C[C@H](NC(=O)[C@H](C)NC(=O)[C@H](CC(C)C)NC(=O)[C@H](CC(C)C)NC(=O)CNC(=O)[C@H](C)NC(=O)[C@H](CC(C)C)NC(=O)[C@H](CC(C)C)NC(=O)[C@H](CC(C)C)NC(=O)[C@H](CC(C)C)NC(=O)[C@H](CCC(N)=O)NC(=O)[C@@H]1CCCN1C(=O)[C@@H](N)CS)C(=O)O` [C5] has an IC50 of 1.1 µM.
